Taken from: PubChem BioAssay AID504761 (Drosophila RNAi Screening Center, 2011)
The deposit covers about 22,000 reagents; this is an unselected part of those with a known target gene and a result. Over the whole deposit, 116 (0.52%) were called active. 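Calls depend on retest data that are not deposited; infection was ranked per plate without normalising between plates; the unit of the infection score is not given.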 Raw values vary from plate to plate and are shown uncorrected. Reagents against one gene are numbered here. A plus sign joins genes that one reagent is predicted to hit. Not stated in the record: the amount of reagent, the time to read-out.

Aim: 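Genome-wide fly cell screen for genes dengue virus requires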 (primary screen)
System: D.Mel-2 cells from Drosophila
Knock-down reagent: long dsRNA against Drosophila genes
Conditions: infection with dengue virus type 2; dose and infection time not stated
Detection: 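Cells stained for dengue envelope protein and imaged; percent of infected cells per well on duplicate plates, ranked by infection, with stained nuclei counted for cell number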
Reading the numbers: infection score: higher = more virus-infected cells; cell count: higher = more cells in the well
Rule for the call: 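Very low infection ranking in both replicate wells (chance probability at most 0.065), then a retest showing infection dropped 1.5-fold or more at p below 0.05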
Meaning of the calls: active = confirmed: knock-down lowers infection; inactive = not picked or not confirmed

gene | dsRNA no. | infection score, replicate 1 | infection score, replicate 2 | cell count, replicate 1 | cell count, replicate 2 | Call
Aven | 1 | 2.48 | 3.51 | 6620 | 6676 | inactive
CG7094 | 1 | 9.95 | 1.95 | 5877 | 7137 | inactive
CG7094 | 2 | 15 | 15.1 | 5945 | 6266 | inactive
Gfat1 | 1 | 2.72 | 1.54 | 5770 | 5595 | inactive
Gfat1 | 2 | 17.6 | 17 | 2789 | 5219 | inactive
atk | 1 | 1.81 | 0.71 | 6189 | 6381 | inactive
atk | 2 | 4.95 | 2.13 | 6246 | 6255 | inactive
atk | 3 | 1.35 | 1.05 | 6282 | 6199 | inactive
CG32983 | 1 | 2.86 | 13.5 | 6325 | 6758 | inactive
CG42827 + CG42828 | 1 | 1.64 | 10.8 | 6895 | 6329 | inactive
rgr | 1 | 10.8 | 9.97 | 6048 | 6510 | inactive
rgr | 2 | 17.3 | 12.5 | 6277 | 6763 | inactive
sti | 1 | 2.84 | 0.53 | 2534 | 2836 | inactive
sti | 2 | 2.13 | 4.31 | 2344 | 2482 | inactive
CG12679 | 1 | 6.51 | 7.23 | 6081 | 5741 | inactive
CG12679 | 2 | – | 6.89 | 385 | 682 | inactive
CG6685 | 1 | 8.96 | 7.72 | 5600 | 6369 | inactive
GstE2 | 1 | 10.5 | 9.89 | 2144 | 3709 | inactive
GstE2 | 2 | 11.3 | 6.05 | 6422 | 6285 | inactive
CG13226 | 1 | 8.3 | 9.59 | 6289 | 6936 | inactive
Nsun2 | 1 | 3.6 | 6.61 | 5774 | 6324 | inactive
Nsun2 | 2 | 27.2 | 1.53 | 4086 | 720 | inactive
CG31191 | 1 | 4.48 | 3.05 | 6648 | 6621 | inactive
Rab26 | 1 | 2.99 | 0.81 | 6560 | 6666 | inactive
Rab26 | 2 | 14.1 | 2.18 | 6353 | 6700 | inactive
Rab26 | 3 | 6.18 | 9.26 | 5794 | 6209 | inactive
Rab26 | 4 | 17.9 | 18.1 | 6182 | 6995 | inactive
Usp16-45 | 1 | 3.25 | 5.15 | 6307 | 6776 | inactive
Usp16-45 | 2 | 1.32 | 3.19 | 6601 | 6576 | inactive

Ordered by “infection score, replicate 2” (highest first): 7 of the entries above.
gene | dsRNA no. | infection score, replicate 1 | infection score, replicate 2 | cell count, replicate 1 | cell count, replicate 2 | Call
GstE2 | 1 | 10.5 | 9.89 | 2144 | 3709 | inactive
CG13226 | 1 | 8.3 | 9.59 | 6289 | 6936 | inactive
CG6685 | 1 | 8.96 | 7.72 | 5600 | 6369 | inactive
CG12679 | 1 | 6.51 | 7.23 | 6081 | 5741 | inactive
CG12679 | 2 | – | 6.89 | 385 | 682 | inactive
Nsun2 | 1 | 3.6 | 6.61 | 5774 | 6324 | inactive
GstE2 | 2 | 11.3 | 6.05 | 6422 | 6285 | inactive

The listing continues:
gene | dsRNA no. | infection score, replicate 1 | infection score, replicate 2 | cell count, replicate 1 | cell count, replicate 2 | Call
CG17019 | 1 | 6.93 | 4.58 | 6086 | 5999 | inactive
Ugalt | 1 | 4.74 | 1.7 | 6176 | 941 | inactive
PPYR1 | 1 | 12.5 | 7.86 | 6204 | 6670 | inactive
PPYR1 | 2 | 16.7 | 5.96 | 6202 | 6256 | inactive
Marc | 1 | 11.9 | 3.6 | 6430 | 7232 | inactive
CG31650 | 1 | 1.22 | 6.67 | 5736 | 6446 | inactive
CG31650 | 2 | 0.54 | 11.2 | 369 | 6197 | inactive
Gr98c | 1 | 9.05 | 3.41 | 6351 | 6941 | inactive
Gr98c | 2 | 0.6 | 10.1 | 7137 | 6076 | inactive
Alp6 | 1 | 22.2 | 8.38 | 5218 | 6180 | inactive
CR11235 | 1 | 12.3 | 10.9 | 5960 | 5962 | inactive
CR11235 | 2 | 2.33 | 3.59 | 473 | 529 | inactive
loj | 1 | 9.79 | 1.95 | 6528 | 6777 | inactive
PolH | 1 | 4.74 | 26.9 | 6753 | 5131 | inactive
Obp83b | 1 | 2.32 | 4.32 | 6634 | 6511 | inactive
Obp83b | 2 | 5.72 | 0.79 | 6117 | 6357 | inactive
CG1271 | 1 | 16.7 | 15.1 | 6798 | 6038 | inactive
CG5355 | 1 | 4.69 | 1.42 | 6632 | 6486 | inactive
scf | 1 | 0.73 | 1.94 | 5862 | 5988 | inactive
CG30105 | 1 | 2.68 | 2.46 | 6520 | 6183 | inactive
CG30105 | 2 | – | 7.82 | 311 | 1356 | inactive
KCNQ | 1 | 28.8 | 19.4 | 5676 | 5964 | inactive
KCNQ | 2 | 11.4 | 17.1 | 5887 | 5683 | inactive
KCNQ | 3 | 4.95 | 3.91 | 5752 | 5697 | inactive
Paip2 | 1 | 14.7 | 17.4 | 3776 | 3762 | inactive
CG12115 | 1 | 10.6 | 35.6 | 5691 | 6114 | inactive
CG31321 | 1 | 3.8 | 1.46 | 6292 | 6374 | inactive
CG31321 | 2 | 9.86 | 7.28 | 6734 | 6635 | inactive
MTA1-like | 1 | 7.13 | 4.66 | 6224 | 5907 | inactive
MTA1-like | 2 | 15.3 | 10.8 | 6026 | 6211 | inactive
MTA1-like | 3 | 3.6 | 3.28 | 6258 | 6465 | inactive
MTA1-like | 4 | 5.22 | 2.63 | 5577 | 5430 | inactive
